Source: patent US20230374563A1, “Methods for Antimicrobial Susceptibility Testing” (MicrobeDX, Inc., priority 2017, published 2023)

Each molecule was assayed on microorganisms in a urine specimen (assay: Accuracy of RiboResponse-based AST on urine specimens compared to broth microdilution). Conditions: RiboResponse-based AST vs broth microdilution.
Format: cell-based

Going from `CC1(C)S[C@@H]2[C@H](NC(=O)[C@H](N)c3ccccc3)C(=O)N2[C@H]1C(=O)O` [Ampicillin] to `O=C(O)c1cn(C2CC2)c2cc(N3CCNCC3)c(F)cc2c1=O` [Ciprofloxacin], the “Accuracy of Present Invention” value rises from 95.1% to 97.6%.

Gentamicin and `NCC[C@H](O)C(=O)N[C@@H]1C[C@H](N)[C@@H](O[C@H]2O[C@H](CN)[C@@H](O)[C@H](O)[C@H]2O)[C@H](O)[C@H]1O[C@H]1O[C@H](CO)[C@@H](O)[C@H](N)[C@H]1O` [Amikacin] are the same in “Accuracy of Present Invention” value: 100.0% for the first, 100.0% for the second.

`Cc1nnc(SCC2=C(C(=O)O)N3C(=O)[C@@H](NC(=O)Cn4cnnn4)[C@H]3SC2)s1` [Cefazolin] and `CO/N=C(\C(=O)N[C@@H]1C(=O)N2C(C(=O)O)=C(CSc3nc(=O)c(=O)[nH]n3C)CS[C@H]12)c1csc(N)n1` [Ceftriaxone] are the same in “Accuracy of Present Invention” value: 97.6% for the first, 97.6% for the second.

What follows are molecules tested on Gram negative pathogens (assay: RiboResponse AST, predetermined concentrations (working panel 2, concentration limits)). Conditions: highest concentration tested that provided acceptable AST assay results.
Format: cell-based

First: C[C@@H]1O[C@@H]1P(=O)(O)O [Fosfomycin]
Second: CC1(C)S[C@@H]2[C@H](NC(=O)[C@H](N)c3ccccc3)C(=O)N2[C@H]1C(=O)O [Ampicillin]
The “Upper Concentration Limit” value of the first is 4-fold lower: 512 µg/mL for the first, 2048 µg/mL for the second.

Going from `O=C(O)c1cn(C2CC2)c2cc(N3CCNCC3)c(F)cc2c1=O` [Ciprofloxacin] to Gentamicin, the “Upper Concentration Limit” value rises from 8 µg/mL to 16 µg/mL (2-fold).

Going from `C[C@@H](O)[C@H]1C(=O)N2C(C(=O)O)=C(S[C@@H]3CN[C@H](C(=O)N(C)C)C3)[C@H](C)[C@H]12` [Meropenem] to `NCC[C@H](O)C(=O)N[C@@H]1C[C@H](N)[C@@H](O[C@H]2O[C@H](CN)[C@@H](O)[C@H](O)[C@H]2O)[C@H](O)[C@H]1O[C@H]1O[C@H](CO)[C@@H](O)[C@H](N)[C@H]1O` [Amikacin], the “Upper Concentration Limit” value rises from 8 µg/mL to 64 µg/mL (8-fold).

First: C[C@@H](O)[C@H]1C(=O)N2C(C(=O)O)=C(S[C@@H]3CN[C@H](C(=O)Nc4cccc(C(=O)O)c4)C3)[C@H](C)[C@H]12 [Ertapenem]
Second: CO/N=C(\C(=O)N[C@@H]1C(=O)N2C(C(=O)O)=C(CSc3nc(=O)c(=O)[nH]n3C)CS[C@H]12)c1csc(N)n1 [Ceftriaxone]
The “Upper Concentration Limit” value of the first is 16-fold lower: 8 µg/mL for the first, 128 µg/mL for the second.

Same assay, conditions: lowest concentration tested that provided acceptable AST assay results

Compared with `C[C@@H]1O[C@@H]1P(=O)(O)O` [Fosfomycin], `CC1(C)S[C@@H]2[C@H](NC(=O)[C@H](N)c3ccccc3)C(=O)N2[C@H]1C(=O)O` [Ampicillin] is 2-fold higher in “Lower Concentration Limit” value: 4 µg/mL for the first, 8 µg/mL for the second.

First: O=C(O)c1cn(C2CC2)c2cc(N3CCNCC3)c(F)cc2c1=O [Ciprofloxacin]
Second: Gentamicin
The “Lower Concentration Limit” value of the first is 2-fold lower: 1 µg/mL for the first, 2 µg/mL for the second.

Compared with `C[C@@H](O)[C@H]1C(=O)N2C(C(=O)O)=C(S[C@@H]3CN[C@H](C(=O)N(C)C)C3)[C@H](C)[C@H]12` [Meropenem], `NCC[C@H](O)C(=O)N[C@@H]1C[C@H](N)[C@@H](O[C@H]2O[C@H](CN)[C@@H](O)[C@H](O)[C@H]2O)[C@H](O)[C@H]1O[C@H]1O[C@H](CO)[C@@H](O)[C@H](N)[C@H]1O` [Amikacin] is 2-fold higher in “Lower Concentration Limit” value: 1 µg/mL for the first, 2 µg/mL for the second.

First: C[C@@H](O)[C@H]1C(=O)N2C(C(=O)O)=C(S[C@@H]3CN[C@H](C(=O)Nc4cccc(C(=O)O)c4)C3)[C@H](C)[C@H]12 [Ertapenem]
Second: CO/N=C(\C(=O)N[C@@H]1C(=O)N2C(C(=O)O)=C(CSc3nc(=O)c(=O)[nH]n3C)CS[C@H]12)c1csc(N)n1 [Ceftriaxone]
The “Lower Concentration Limit” value of the first is 2-fold lower: 0.5 µg/mL for the first, 1 µg/mL for the second.
